In EP3529371:

Molecular target: H6tHAtev1V(2-94)LS, Photinus pyralis
Test: cell-based or functional assay

Substance: BoNT/F1 (recombinant, activated full-length)
- EC50 of cleavage of generic substrate with reporter luc, JDZ-buffer, 1 h 37°C: 30 pM
- EC50 of substrate cleavage, endopeptidase assay, JDZ-buffer, 1 h 37°C: 30 pM
